Results: paper PMC6063448 (PLoS ONE, 2018)
HELM strings list residues between dots; [ac] is acetyl, [am] amide, other brackets name non-standard units.

Experiment: general procedure: Fmoc solid-phase peptide synthesis; Fmoc-Rink-MBHA resin (0.56 mmol/g); Oxyma/DIC
Settings: whole synthesis, 220 nm

Substance	final HPLC purity
PEPTIDE1{[ac].K.K.L.F.K.K.I.L.[KAC3].Y.L.[am]}$$$$V2.0	>99%
PEPTIDE1{[ac].K.K.L.[KAC3].K.K.I.L.K.Y.L.[am]}$$$$V2.0	>99%
PEPTIDE1{[ac].K.K.L.[KAC5].K.K.I.L.K.Y.L.[am]}$$$$V2.0	>99%
PEPTIDE1{[ac].K.K.L.F.[KAC3].K.I.L.K.Y.L.[am]}$$$$V2.0	>99%
PEPTIDE1{[ac].[KAC5].K.L.F.K.K.I.L.K.Y.L.[am]}$$$$V2.0	>99%
PEPTIDE1{[ac].K.K.[KAC5].F.K.K.I.L.K.Y.L.[am]}$$$$V2.0	>99%
PEPTIDE1{[ac].K.K.L.F.K.K.[KAC3].L.K.Y.L.[am]}$$$$V2.0	>99%
PEPTIDE1{[ac].K.K.L.F.K.K.I.L.K.[KAC3].L.[am]}$$$$V2.0	>99%
PEPTIDE1{[ac].K.K.L.F.K.[KAC5].I.L.K.Y.L.[am]}$$$$V2.0	>99%
PEPTIDE1{[ac].K.K.L.F.K.[KAC11].I.L.K.Y.L.[am]}$$$$V2.0	97%
PEPTIDE1{[ac].[KAC3].K.L.F.K.K.I.L.K.Y.L.[am]}$$$$V2.0	>99%
PEPTIDE1{[ac].K.[KAC3].L.F.K.K.I.L.K.Y.L.[am]}$$$$V2.0	>99%
PEPTIDE1{[ac].K.K.L.F.K.K.[KAC11].L.K.Y.L.[am]}$$$$V2.0	>99%
PEPTIDE1{[ac].K.K.L.F.K.K.I.L.K.[KAC5].L.[am]}$$$$V2.0	>99%
PEPTIDE1{[ac].K.K.L.F.K.[KAC3].I.L.K.Y.L.[am]}$$$$V2.0	>99%
PEPTIDE1{[ac].K.K.L.F.K.K.I.[KAC11].K.Y.L.[am]}$$$$V2.0	>99%
PEPTIDE1{[ac].K.[KAC5].L.F.K.K.I.L.K.Y.L.[am]}$$$$V2.0	92%
PEPTIDE1{[Cn12].K.K.L.F.K.K.I.L.K.Y.L.[am]}$$$$V2.0	>99%

Substance	final HPLC purity
PEPTIDE1{[ac].K.K.L.F.K.K.I.L.K.[KAC11].L.[am]}$$$$V2.0	>99%
PEPTIDE1{[ac].K.K.[KAC3].F.K.K.I.L.K.Y.L.[am]}$$$$V2.0	>99%
PEPTIDE1{[ac].K.K.L.F.K.K.I.L.K.Y.[KAC3].[am]}$$$$V2.0	>99%
PEPTIDE1{[ac].K.K.L.F.K.K.I.[KAC3].K.Y.L.[am]}$$$$V2.0	>99%
PEPTIDE1{[ac].[KAC11].K.L.F.K.K.I.L.K.Y.L.[am]}$$$$V2.0	>99%
PEPTIDE1{[ac].K.K.L.F.K.K.I.L.[KAC11].Y.L.[am]}$$$$V2.0	>99%
PEPTIDE1{[ac].K.K.L.F.[KAC11].K.I.L.K.Y.L.[am]}$$$$V2.0	>99%
PEPTIDE1{[ac].K.K.[KAC11].F.K.K.I.L.K.Y.L.[am]}$$$$V2.0	97%
PEPTIDE1{[ac].K.[KAC11].L.F.K.K.I.L.K.Y.L.[am]}$$$$V2.0	>99%
PEPTIDE1{[ac].K.K.L.F.K.K.[KAC5].L.K.Y.L.[am]}$$$$V2.0	>99%
PEPTIDE1{[ac].K.K.L.F.K.K.I.L.K.Y.[KAC11].[am]}$$$$V2.0	99%
PEPTIDE1{[ac].K.K.L.F.K.K.I.[KAC5].K.Y.L.[am]}$$$$V2.0	>99%
PEPTIDE1{[Cn4].K.K.L.F.K.K.I.L.K.Y.L.[am]}$$$$V2.0	>99%
PEPTIDE1{[ac].K.K.L.F.K.K.I.L.K.Y.[KAC5].[am]}$$$$V2.0	>99%
PEPTIDE1{[ac].K.K.L.F.[KAC5].K.I.L.K.Y.L.[am]}$$$$V2.0	>99%
PEPTIDE1{[ac].K.K.L.F.K.K.I.L.[KAC5].Y.L.[am]}$$$$V2.0	>99%
PEPTIDE1{[Cn6].K.K.L.F.K.K.I.L.K.Y.L.[am]}$$$$V2.0	>99%
PEPTIDE1{[ac].K.K.L.[KAC11].K.K.I.L.K.Y.L.[am]}$$$$V2.0	>99%
